Experimental data: PubChem BioAssay AID1224833 (University of Georgia, 2016)
This is one part, drawn at random, of about 12,000 reagents. About 5,600 of them (46%) count as active. 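Active calls cover z-scores past 1 in both directions, so they include lowered as well as raised rotavirus replication.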

Screen: 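Host factors restraining rotavirus as candidate antiviral genes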 (primary screen)
System: monkey MA104 kidney cells
Reagent: siRNA pool against human genes, 50 nM
Time to read-out: 48 h knock-down before infection; read 24 h after infection
Conditions: infection with rotavirus strain RV3 two days after transfection; infectious dose for this stage not given
Detection: 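Rotavirus antigen per well by fluorescent immunoassay, normalised to non-targeting control wells on each plate and given as a standard z-score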
Reading the numbers: z-score vs non-targeting control: higher = more rotavirus replication than with non-targeting control
Active means: In these data the active calls have z-score vs non-targeting control at about -1 or lower, or at about 1 or higher
Meaning of the calls: active = z-score beyond 1 either way; inactive = z-score within 1 of zero

The opening 6 entries, ahead of the listing:
| gene knocked down | z-score vs non-targeting control | outcome |
| --- | --- | --- |
| HARS2 (histidyl-tRNA synthetase 2, mitochondrial) | -1.38 | active |
| CDCA3 (cell division cycle associated 3) | 1.53 | active |
| ANXA2 (annexin A2) | -2.34 | active |
| SAMD1 (sterile alpha motif domain containing 1) | -1.74 | active |
| SIGLEC6 (sialic acid binding Ig like lectin 6) | -1.47 | active |
| NPAT (nuclear protein, coactivator of histone transcription) | -0.0641 | inactive |

The listing, repeating the preview:
| gene knocked down | z-score vs non-targeting control | outcome |
| --- | --- | --- |
| HARS2 (histidyl-tRNA synthetase 2, mitochondrial) | -1.38 | active |
| CDCA3 (cell division cycle associated 3) | 1.53 | active |
| ANXA2 (annexin A2) | -2.34 | active |
| SAMD1 (sterile alpha motif domain containing 1) | -1.74 | active |
| SIGLEC6 (sialic acid binding Ig like lectin 6) | -1.47 | active |
| NPAT (nuclear protein, coactivator of histone transcription) | -0.0641 | inactive |
| LIMCH1 (LIM and calponin homology domains 1) | -0.65 | inactive |
| CENPF (centromere protein F) | 0.0797 | inactive |
| TAF11 (TATA-box binding protein associated factor 11) | 1.75 | active |
| ZCCHC7 (zinc finger CCHC-type containing 7) | 2.37 | active |
| DDIT3 (DNA damage inducible transcript 3) | -1.59 | active |
| SCGB2A1 (secretoglobin family 2A member 1) | -1.74 | active |
| ATP12A (ATPase H+/K+ transporting non-gastric alpha2 subunit) | -1.11 | active |
| RRP9 | 0.419 | inactive |
| POLR3H (RNA polymerase III subunit H) | -0.733 | inactive |
| BIRC5 (baculoviral IAP repeat containing 5) | 0.574 | inactive |
| EXD1 (exonuclease 3'-5' domain containing 1) | -0.988 | inactive |
| CLN8 (CLN8 transmembrane ER and ERGIC protein) | -1.03 | active |
| LRRFIP1 (LRR binding FLII interacting protein 1) | -0.201 | inactive |
| GGNBP2 (gametogenetin binding protein 2) | -1.32 | active |
| ZNF575 (zinc finger protein 575) | 1.03 | active |
| ACTRT3 (actin related protein T3) | -0.376 | inactive |
| PCDHB10 (protocadherin beta 10) | -0.209 | inactive |
| COPZ2 (coat protein complex I subunit zeta 2) | 0.544 | inactive |
| OR2Y1 (olfactory receptor family 2 subfamily Y member 1) | 0.0316 | inactive |
| SLC27A6 | 0.832 | inactive |
| SLC35F5 | -0.278 | inactive |
| CCDC183 (coiled-coil domain containing 183) | -0.179 | inactive |
| C3orf38 (chromosome 3 open reading frame 38) | 1.73 | active |
| CTSA (cathepsin A) | -2.52 | active |
| MRGBP (MRG domain binding protein) | -1.13 | active |
| PRDM8 (PR/SET domain 8) | -1.77 | active |
| CD163L1 (CD163 molecule like 1) | -1.46 | active |
| DEFB105A (defensin beta 105A) | 0.247 | inactive |
| CTDSPL2 (CTD small phosphatase like 2) | 0.892 | inactive |
| LY6S-AS1 (LY6S antisense RNA 1) | -2.06 | active |
| SPTAN1 (spectrin alpha, non-erythrocytic 1) | -0.365 | inactive |
| MAG (myelin associated glycoprotein) | 0.265 | inactive |
| ADIPOR2 (adiponectin receptor 2) | 0.92 | inactive |
| RHOV (ras homolog family member V) | 1.73 | active |
| LGALS14 (galectin 14) | -0.0979 | inactive |
| IFT122 (intraflagellar transport 122) | -1.04 | active |
| SHISAL2A (shisa like 2A) | -0.886 | inactive |
| GEMIN7 (gem nuclear organelle associated protein 7) | -0.756 | inactive |
| PTGFR (prostaglandin F receptor) | -0.959 | inactive |
| PCDHGA6 (protocadherin gamma subfamily A, 6) | -1.07 | active |
| FICD (FIC domain protein adenylyltransferase) | 0.536 | inactive |
| SYT7 (synaptotagmin 7) | 1.21 | active |
| ZSCAN20 (zinc finger and SCAN domain containing 20) | -2.04 | active |
| GABARAPL1 (GABA type A receptor associated protein like 1) | -1.36 | active |
| LYSMD2 (LysM domain containing 2) | -0.522 | inactive |
| CDCA7L (cell division cycle associated 7 like) | 0.805 | inactive |
| NIPA2 (NIPA magnesium transporter 2) | -0.763 | inactive |
| GSDMD (gasdermin D) | -0.225 | inactive |
| TXNDC5 (thioredoxin domain containing 5) | -0.664 | inactive |
| DENND2A (DENN domain containing 2A) | 0.775 | inactive |
| ZNF266 (zinc finger protein 266) | -0.836 | inactive |
| POC1B (POC1 centriolar protein B) | 1.2 | active |
| BRK1 (BRICK1 subunit of SCAR/WAVE actin nucleating complex) | -1.54 | active |
| MRPL17 (mitochondrial ribosomal protein L17) | -0.92 | inactive |
| OR1L8 (olfactory receptor family 1 subfamily L member 8) | 0.274 | inactive |
| AIPL1 (AIP like 1 HSP90 co-chaperone) | -1.35 | active |
| APBB3 (amyloid beta precursor protein binding family B member 3) | -2.8 | active |
| GP1BA (glycoprotein Ib platelet subunit alpha) | -1.53 | active |
| MME (membrane metalloendopeptidase) | -0.638 | inactive |
| KDM6B (lysine demethylase 6B) | 0.686 | inactive |
| DDX18 (DEAD-box helicase 18) | 0.51 | inactive |
| PDZK1IP1 (PDZK1 interacting protein 1) | -1.06 | active |
| NFE2 (nuclear factor, erythroid 2) | -1.42 | active |
| HMGA2 (high mobility group AT-hook 2) | 0.704 | inactive |
| PLEC (plectin) | -0.639 | inactive |
| DHRS7 (dehydrogenase/reductase 7) | -1.24 | active |
| CHN2 (chimerin 2) | 0.811 | inactive |
| PCDHA9 (protocadherin alpha 9) | 0.918 | inactive |
| SLC35G5 | -0.194 | inactive |
| MTSS2 (MTSS I-BAR domain containing 2) | -1.22 | active |
| L2HGDH (L-2-hydroxyglutarate dehydrogenase) | -2.26 | active |
| SDC2 (syndecan 2) | -2.28 | active |
| MTCH2 | -2.02 | active |
| NFKBID (NFKB inhibitor delta) | -0.967 | inactive |
| CFH (complement factor H) | -0.907 | inactive |
| ARL4D (ARF like GTPase 4D) | -0.661 | inactive |
| SHQ1 (SHQ1, H/ACA ribonucleoprotein assembly factor) | 1.14 | active |
| SNTB2 (syntrophin beta 2) | 1.09 | active |
| TERF1 (telomeric repeat binding factor 1) | -1.16 | active |
| RANBP1 (RAN binding protein 1) | -1.61 | active |
| FGF5 (fibroblast growth factor 5) | -0.515 | inactive |
| NECAP1 (NECAP endocytosis associated 1) | 0.275 | inactive |
| NLRP5 (NLR family pyrin domain containing 5) | 0.979 | inactive |
| WDR18 (WD repeat domain 18) | -0.44 | inactive |
| BAG4 (BAG cochaperone 4) | 2.53 | active |
| SLC22A23 | 0.963 | inactive |
| PRXL2B (peroxiredoxin like 2B) | -1.47 | active |
| ARPP21 (cAMP regulated phosphoprotein 21) | 0.133 | inactive |
| HSD11B2 (hydroxysteroid 11-beta dehydrogenase 2) | -0.837 | inactive |
| NOXA1 (NADPH oxidase activator 1) | -1.52 | active |
| ZNF383 (zinc finger protein 383) | -0.823 | inactive |
| ZMYND8 (zinc finger MYND-type containing 8) | -0.571 | inactive |
| PXDC1 (PX domain containing 1) | -0.507 | inactive |
| MRPS17 (mitochondrial ribosomal protein S17) | -0.174 | inactive |
| TCF15 (transcription factor 15) | -1.51 | active |
| CMSS1 (cms1 ribosomal small subunit homolog) | 0.557 | inactive |
| PIERCE1 (piercer of microtubule wall 1) | 0.56 | inactive |
| MRPL34 (mitochondrial ribosomal protein L34) | -1.64 | active |
| C3orf36 (chromosome 3 putative open reading frame 36) | -1.27 | active |
| ZNF154 (zinc finger protein 154) | -1.15 | active |
| SAP30BP (SAP30 binding protein) | -1.72 | active |
| NBR1 (NBR1 autophagy cargo receptor) | 1.48 | active |
| CDCA8 (cell division cycle associated 8) | -0.145 | inactive |
| AP1S1 (adaptor related protein complex 1 subunit sigma 1) | -0.519 | inactive |
